Values from PubChem BioAssay AID1259414 (Drosophila RNAi Screening Center, 2018)

Aim: 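Host factors increasing or decreasing Wolbachia levels in cultured fly cells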 (primary screen)
Cells: Drosophila JW18 cells infected with Wolbachia
Reagents: long dsRNA against Drosophila genes, 0.25 µg dsRNA per well of a 384-well plate
Time to read-out: 5 days
Treatment: cells persistently infected with Wolbachia before knock-down; no added drug
Measured: 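Imaged fluorescence in situ signal for Wolbachia 23S rRNA per DAPI-counted host cell, given as a robust z-score within each plate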
Scale: Wolbachia per cell robust z: higher = more Wolbachia per host cell than the plate typical
Active means: 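Active if absolute robust z reaches 1.5 in two or more of three replicates, leaving out multi- or no-target dsRNAs, genes unexpressed in JW18 and A1 wells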
The screen tested about 24,000 reagents; this is a random part of those that have a named target and a result. Of all reagents, about 1,210 (5%) were called active. 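Inactive calls also include excluded dsRNAs with several or no targets, genes unexpressed in JW18, and well A1, regardless of score.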 Reagents against one gene are numbered here.

With knock-down of CG12511 (GeneID 33797), the record shows Wolbachia per cell robust z, rep 1 = -2.86; Wolbachia per cell robust z, rep 2 = -0.957; Wolbachia per cell robust z, rep 3 = 0.38; inactive. After knock-down of CG18404 (GeneID 43603), the record shows Wolbachia per cell robust z, rep 1 = -4.89; Wolbachia per cell robust z, rep 2 = -4.44; Wolbachia per cell robust z, rep 3 = 0.221; inactive. zetaCOP (GeneID 39862) showed Wolbachia per cell robust z, rep 1 = 0.969; Wolbachia per cell robust z, rep 2 = 1.52; Wolbachia per cell robust z, rep 3 = 2.52; active. CG17470 (GeneID 35321) showed Wolbachia per cell robust z, rep 1 = 1.16; Wolbachia per cell robust z, rep 2 = -7.33; Wolbachia per cell robust z, rep 3 = 1.33; inactive. TwdlF (GeneID 40534) #1 gave Wolbachia per cell robust z, rep 1 = 0.762; Wolbachia per cell robust z, rep 2 = -1.91; Wolbachia per cell robust z, rep 3 = -0.751; inactive. With knock-down of TwdlF (GeneID 40534) #2 the results were Wolbachia per cell robust z, rep 1 = -0.632; Wolbachia per cell robust z, rep 2 = 0.648; Wolbachia per cell robust z, rep 3 = -5.21; inactive.

With knock-down of CG12299 (GeneID 34483) #1, the screen gave Wolbachia per cell robust z, rep 1 = 1.88; Wolbachia per cell robust z, rep 2 = -7.18; Wolbachia per cell robust z, rep 3 = -0.197; inactive. For CG12299 (GeneID 34483) #2 the deposit lists Wolbachia per cell robust z, rep 1 = -0.289; Wolbachia per cell robust z, rep 2 = -0.153; Wolbachia per cell robust z, rep 3 = -0.933; inactive. CG12299 (GeneID 34483) #3 scored Wolbachia per cell robust z, rep 1 = 0.39; Wolbachia per cell robust z, rep 2 = -0.0673; Wolbachia per cell robust z, rep 3 = 0.3; inactive.

Copied from the entries so far for reference:
zetaCOP (GeneID 39862) → Wolbachia per cell robust z, rep 1 = 0.969; Wolbachia per cell robust z, rep 2 = 1.52; Wolbachia per cell robust z, rep 3 = 2.52; Call = active
CG17470 (GeneID 35321) → Wolbachia per cell robust z, rep 1 = 1.16; Wolbachia per cell robust z, rep 2 = -7.33; Wolbachia per cell robust z, rep 3 = 1.33; Call = inactive

Continued.
CG7394 (GeneID 39294) gave Wolbachia per cell robust z, rep 1 = -0.23; Wolbachia per cell robust z, rep 2 = -1.89; Wolbachia per cell robust z, rep 3 = -1.23; inactive. After knock-down of Corp (GeneID 31764) #1, the screen gave Wolbachia per cell robust z, rep 1 = 2.1; Wolbachia per cell robust z, rep 2 = 0.43; Wolbachia per cell robust z, rep 3 = 1.63; active. For Corp (GeneID 31764) #2, the values are Wolbachia per cell robust z, rep 1 = 0.892; Wolbachia per cell robust z, rep 2 = -0.167; Wolbachia per cell robust z, rep 3 = 0.926; inactive. Spn42De (GeneID 35602) #1 scored Wolbachia per cell robust z, rep 1 = -0.649; Wolbachia per cell robust z, rep 2 = -1.06; Wolbachia per cell robust z, rep 3 = -0.414; inactive. Spn42De (GeneID 35602) #2 scored Wolbachia per cell robust z, rep 1 = 0.76; Wolbachia per cell robust z, rep 2 = -0.348; Wolbachia per cell robust z, rep 3 = 0.666; inactive. Silencing of CkIalpha (GeneID 32221) #1 resulted in: Wolbachia per cell robust z, rep 1 = 2.48; Wolbachia per cell robust z, rep 2 = 1.58; Wolbachia per cell robust z, rep 3 = 3.53; active.

Silencing of CkIalpha (GeneID 32221) #2 resulted in: Wolbachia per cell robust z, rep 1 = 0.684; Wolbachia per cell robust z, rep 2 = 0.245; Wolbachia per cell robust z, rep 3 = 1.38; inactive. After knock-down of CkIalpha (GeneID 32221) #3 the results were Wolbachia per cell robust z, rep 1 = -0.693; Wolbachia per cell robust z, rep 2 = 0.225; Wolbachia per cell robust z, rep 3 = -0.587; inactive. Against CkIalpha (GeneID 32221) #4, the values are Wolbachia per cell robust z, rep 1 = 3.31; Wolbachia per cell robust z, rep 2 = 3.66; Wolbachia per cell robust z, rep 3 = -0.0876; active. CG43147 (GeneID 12798240) showed Wolbachia per cell robust z, rep 1 = 0.905; Wolbachia per cell robust z, rep 2 = 1.24; Wolbachia per cell robust z, rep 3 = -2.01; inactive. After knock-down of fd96Cb (GeneID 43011) #1, the record shows Wolbachia per cell robust z, rep 1 = 0.0664; Wolbachia per cell robust z, rep 2 = 0.206; Wolbachia per cell robust z, rep 3 = 0.715; inactive. fd96Cb (GeneID 43011) #2 scored Wolbachia per cell robust z, rep 1 = 0.268; Wolbachia per cell robust z, rep 2 = -0.369; Wolbachia per cell robust z, rep 3 = 0.525; inactive.

pod1 (GeneID 31620) #1 showed Wolbachia per cell robust z, rep 1 = 0.436; Wolbachia per cell robust z, rep 2 = -1.11; Wolbachia per cell robust z, rep 3 = 0.299; inactive. For pod1 (GeneID 31620) #2, the entry reads Wolbachia per cell robust z, rep 1 = 0.452; Wolbachia per cell robust z, rep 2 = -1.49; Wolbachia per cell robust z, rep 3 = -0.252; inactive. With knock-down of ci (GeneID 43767), the screen gave Wolbachia per cell robust z, rep 1 = -1.05; Wolbachia per cell robust z, rep 2 = -0.126; Wolbachia per cell robust z, rep 3 = 0.918; inactive.
